Earlier results, collected in publication PMC7915867, “Discovery of a Small Molecule Inhibitor of Human Adenovirus Capable of Preventing Escape from the Endosome” (International Journal of Molecular Sciences, 2021).

test system: HAdV5-GFP; details: ratio CC50 / IC50; cited from earlier work

Row | Compound | selectivity index (SI)
1 | CC(C)C(NC(=O)c1cc(Cl)ccc1O)C(=O)Nc1ccc([N+](=O)[O-])cc1Cl (stereo not drawn) [Compound 6] | 444.4
2 | O=C(Nc1cc(F)cc(C(F)(F)F)c1)c1cc(Cl)ccc1O [Compound 4] | 666.7
3 | CC1(Nc2ccc(NC(=O)c3cc(Cl)ccc3O)c(Cl)c2)CCCC1 [Compound 5] | 580.7
